Compound potency records, mixed from different reports. Data source: NIAID ChemDB in PubChem.

Common to all: tests in culture; agent: Hepatitis C virus; endpoint: EC50

ECn is the concentration giving n% inhibition of infection, replication or growth.

SMILES,method,conditions,cell line,strain,value
Nc1nc(O[C@H]2CCOC2)c2nc(-c3ccc(C(=O)NCCCN4CCCC4)cc3)ccc2n1,replicon,-,Huh7,-,0.3–1 µM
CNC(=O)c1c(-c2ccc(F)c(C)c2)oc2ccc(OC)cc12,replicon,-,Huh7,-,<30 µM
NS(=O)(=O)c1ccc(CNc2nc(NCC(F)(F)F)c3nc(-c4ccc(F)c(S(=O)(=O)NC5CCNCC5)c4)ccc3n2)cc1,replicon,-,-,-,<0.1 µM
COc1cc(Cc2cnc(/N=C3\C(=O)N(CN4CCN(c5ccccn5)CC4)c4ccc(C)cc43)nc2N)cc(OC)c1OC,-,-,Huh7,-,<50 µg/mL
COc1cc(OC)cc(N(C)c2cc(OP(=O)(O)OP(=O)(O)O)c(N)cc2C(=O)O)c1,replicon,-,Huh 5-2,-,>50 µg/mL
COc1ccc(-c2nc(O[C@@H]3C[C@H]4C(=O)N[C@]5(C(=O)NS(=O)(=O)C6CC6)C[C@H]5/C=C\CCCCN(C)C(=O)N4C3)c3ccc(OC)c(C)c3n2)cc1,luciferase / replicon,genotype 1b,-,1b,0.008 µM
CC1(C)CC[C@@]2(C(=O)NCc3cn(CCCCCn4cc(CNC(=O)[C@]56CCC(C)(C)CC5C5=CCC7[C@@]8(C)CC[C@H](O)C(C)(C)C8CC[C@@]7(C)[C@]5(C)C[C@H]6O)nn4)nn3)C(C1)C1=CCC3[C@@]4(C)CC[C@H](O)C(C)(C)C4CC[C@@]3(C)[C@]1(C)C[C@H]2O,luciferase / entry,-,Huh7,-,0.13 µM
CNC(=O)c1c(-c2ccccc2)oc2ccc(C(C)(C)C)cc12,replicon,-,Huh7,-,<10 µM
CN(C)C(=O)Cn1ccc2c(C3CCCCC3)c(-c3ccccc3)nc-2c1,replicon,-,-,1b,<100 µM
COc1cc(Cc2cnc(/N=C3\C(=O)N(CN4CCN(c5cccc(C(F)(F)F)c5)CC4)c4ccc(C)cc43)nc2N)cc(OC)c1OC,-,-,Huh7,-,<50 µg/mL
CCOc1nc(NCc2cc(F)cc(F)c2)nc2ccc(-c3ccc(F)cc3)nc12,replicon,-,-,-,<0.1 µM
COc1cc(Cc2cnc(/N=C3\C(=O)N(CN4CCN(c5ccccc5)CC4)c4ccc(C)cc43)nc2N)cc(OC)c1OC,-,-,Huh7,-,<50 µg/mL
Fc1ccccc1-c1cc2cn(Cc3ccc(OC(F)(F)F)cc3)ccc-2n1,replicon,-,-,1b,<100 µM
CC1=C(C(=O)OC(C)c2ccccc2)CNC(=S)N1,ELISA,-,Huh7,-,1–10 µM
NS(=O)(=O)c1cc(-c2ccc3nc(NCc4ccc(F)cc4)nc(NCC(F)(F)F)c3n2)ccc1F,replicon,-,-,-,<0.1 µM
CCOC(=O)[C@@]12C[C@H]1/C=C\CCCCC[C@H](CC(=O)N1CCCCC1)C(=O)N1C[C@H](Oc3cc(-c4ccccc4)nc4cc(OC)ccc34)C[C@H]1C(=O)N2,replicon,-,-,-,>10 µM
CC1=C(C(=O)OCCc2cccc(Cl)c2)C(COC(=O)CCN(C)C)NC(=S)N1,ELISA,-,Huh7,-,<1 µM
CCCOc1cc2c(C(=O)NC)c(-c3ccc(F)cc3)oc2cc1N(CS(C)(=O)=O)OC,replicon,-,Huh7,-,<1 µM
C=C[C@@H]1C[C@]1(NC(=O)C1C[C@@H](Oc2cc(-c3csc(NC4CCCC4)n3)nc3cc(OC)ccc23)CN1C(=O)[C@@H](NC(=O)OC1CCCC1)C1CCCCC1)C(=O)O,-,-,Huh7,-,<0.5 µM
COc1cc(Cc2cnc(/N=C3\C(=O)N(CN4CCN(c5c(OC)cc6c(c5F)c(=O)c(C(=O)O)cn6C5CC5)CC4C)c4ccc(C)cc43)nc2N)cc(OC)c1OC,-,-,Huh7,-,<50 µg/mL
CC1(C)CC[C@@]2(C(=O)NCc3cn(CCCn4cc(CNC(=O)[C@]56CCC(C)(C)CC5C5=CCC7[C@@]8(C)CC[C@H](O)C(C)(C)C8CC[C@@]7(C)[C@]5(C)C[C@H]6O)nn4)nn3)C(C1)C1=CCC3[C@@]4(C)CC[C@H](O)C(C)(C)C4CC[C@@]3(C)[C@]1(C)C[C@H]2O,luciferase / entry,-,Huh7,-,0.01 µM
C=C(Br)CCOC(=O)C1=C(C)NC(=S)NC1,ELISA,-,Huh7,-,<1 µM
CC(C)CNC(=O)c1ccc(-c2ccc3nc(N)nc(OC(C)C)c3n2)cc1,replicon,-,Huh7,-,0.3–1 µM
C=C[C@@H]1C[C@]1(NC(=O)C1C[C@@H](Oc2cc(-c3csc(NC4CCCC4)n3)nc3cc(OC)ccc23)CN1C(=O)[C@@H](NC(=O)OC1CCCC1)C1CCCC1)C(=O)O,-,-,Huh7,-,<0.5 µM
CCOc1nc(NCc2ccc(S(N)(=O)=O)cc2)nc2ccc(-c3ccc(N4CC(O)CC4=O)cc3)nc12,replicon,-,-,-,<0.1 µM
C[C@@H](NC(=O)c1ccc2c(c1)nc(-c1ccoc1)n2C1CCCCC1)C(=O)Nc1ccc(/C=C/C(=O)O)cc1,-,-,Huh7,-,5–50 µM
COc1cccc(N2C(=O)/C(=C/c3ccc(-c4ccc(Cl)cc4)o3)C(=O)N(c3cccc4ccccc34)C2=S)c1,replicon,-,-,-,18.7 µM
c1cc2c(C3CCCCC3)c[nH]c2cn1,replicon,-,-,1b,<100 µM
CNC(=O)c1c(-c2ccc(F)cc2)oc2cc(N(CS(C)(=O)=O)c3ccncc3)c(OC)cc12,replicon,-,Huh7,-,<1 µM
CCOC(=O)[C@]12C[C@@H]1/C=C\CCCCC[C@H](CC(=O)OC(C)(C)C)C(=O)N1C[C@H](Oc3cc(-c4ccccc4)nc4cc(OC)ccc34)C[C@H]1C(=O)N2,replicon,-,-,-,1–10 µM
CCc1cc2c(C(=O)NC)c(-c3ccc(F)cc3)oc2cc1N(CCO)S(C)(=O)=O,replicon,-,Huh7,-,<1 µM
COC(=O)N[C@H](C(=O)N1CC2(CC2)C[C@H]1c1ncc(-c2ccc3c(c2)C(F)(F)c2cc(-c4ccc5nc([C@@H]6[C@H]7CC[C@H](C7)N6C(=O)[C@@H](NC(=O)OC)C(C)C)[nH]c5c4)ccc2-3)[nH]1)C(C)C,replicon,-,HCV replicon cells,Genotype 1A,0.000034 µM
CNC(=O)c1c(-c2ccc(F)cc2)oc2cc(N3CCOCC3)c(OCc3ccc(OC)cc3)cc12,replicon,-,Huh7,-,<1 µM
Fc1ccc(-c2cc(Cn3ccc4c(C5CCCCC5)c(-c5ccccc5)nc-4c3)on2)c(C(F)(F)F)c1,replicon,-,-,1b,<100 µM
COc1cc(Cc2cnc(/N=C3\C(=O)N(CN4CCCCC4)c4ccc(C)cc43)nc2N)cc(OC)c1OC,-,-,Huh7,-,<50 µg/mL
O=C(O[C@@H]1Cc2c(O)cc(O)cc2O[C@@H]1c1cc(O)c(O)c(O)c1)c1cc(O)c(O)c(O)c1,luciferase,-,-,1a,5 µM
O=C(O)/C=C/c1ccc(NC(=O)C2(NC(=O)c3ccc4c(c3)nc(-c3ccoc3)n4C3CCCCC3)CCC2)cc1,-,-,Huh7,-,≤5 µM
CCOc1nc(N)nc2ccc(-c3ccc(NC(=O)OC)cc3)nc12,replicon,-,Huh7,-,0.3–1 µM
COc1ccc2c(O[C@@H]3C[C@H]4C(=O)N[C@]5(C(=O)O)C[C@H]5/C=C\CCCCC[C@H](CC(=O)N5CCCCC5)C(=O)N4C3)cc(-c3ccccc3)nc2c1,replicon,-,-,-,>10 µM
CCOc1nc(N)nc2ccc(-c3ccc(NC(=O)C4(N)CC4)cc3)nc12,replicon,-,Huh7,-,<0.3 µM
C=CC1CC1(NC(=O)[C@@H]1C[C@@H](Oc2cc(-c3ccccc3)nc3cc(OC)ccc23)CN1C(=O)[C@@H](CC(=O)N1CCCCC1)C(C)(C)C)C(=O)NS(=O)(=O)C1CC1,replicon,-,-,-,1–10 µM
CCCCCCCC(=O)CCCCCC/C=C/[C@H](C(=O)N[C@@H](Cc1ccc(OCCC(C)C)cc1)C(=O)O)[C@@](O)(CC(=O)O)C(=O)O,-,-,-,-,0.0019 µM
Fc1ccc(-c2ccc3nc(NCc4ccc(-n5cncn5)cc4)nc(NCC(F)(F)F)c3n2)cc1,replicon,-,-,-,<0.1 µM
COc1cc(Cc2cnc(/N=C3\C(=O)N(CN4CCNCC4)c4ccc(C)cc43)nc2N)cc(OC)c1OC,-,-,Huh7,-,<50 µg/mL
CNC(=O)c1c(-c2ccc(F)c(F)c2)oc2ccc(OC)cc12,replicon,-,Huh7,-,<10 µM
O=C(O)/C=C/c1ccc(NC(=O)C2(NC(=O)c3ccc4c(c3)nc(-c3ccoc3)n4C3CCCCC3)CCCCC2)cc1,-,-,Huh7,-,≤5 µM

Repeating the final 6 entries:

SMILES	method	conditions	cell line	strain	value
C=CC1CC1(NC(=O)[C@@H]1C[C@@H](Oc2cc(-c3ccccc3)nc3cc(OC)ccc23)CN1C(=O)[C@@H](CC(=O)N1CCCCC1)C(C)(C)C)C(=O)NS(=O)(=O)C1CC1	replicon	-	-	-	1–10 µM
CCCCCCCC(=O)CCCCCC/C=C/[C@H](C(=O)N[C@@H](Cc1ccc(OCCC(C)C)cc1)C(=O)O)[C@@](O)(CC(=O)O)C(=O)O	-	-	-	-	0.0019 µM
Fc1ccc(-c2ccc3nc(NCc4ccc(-n5cncn5)cc4)nc(NCC(F)(F)F)c3n2)cc1	replicon	-	-	-	<0.1 µM
COc1cc(Cc2cnc(/N=C3\C(=O)N(CN4CCNCC4)c4ccc(C)cc43)nc2N)cc(OC)c1OC	-	-	Huh7	-	<50 µg/mL
CNC(=O)c1c(-c2ccc(F)c(F)c2)oc2ccc(OC)cc12	replicon	-	Huh7	-	<10 µM
O=C(O)/C=C/c1ccc(NC(=O)C2(NC(=O)c3ccc4c(c3)nc(-c3ccoc3)n4C3CCCCC3)CCCCC2)cc1	-	-	Huh7	-	≤5 µM

a–b is a range or a potency band. An empty or dashed field is not shown. Rows are shuffled and stem from different studies.